A mixed list of measured activities; the numbers were collected in NIAID ChemDB.

Common to all: tests in culture; species: Mycobacterium tuberculosis

MIC bound: limit read from a one-dose screen. ECn: concentration that inhibits the pathogen or its effect by n%. Inhibition is in % at the dose shown (toxicity tests: loss of growth or viability). Blank or dashed fields: not listed here. For "inactive" no cut-off is given. Lines come from different laboratories, so protocols vary. A number after MIC or MFC names an inhibition level or a share of isolates.

compound | tested at | strain or isolate | read by | endpoint | value
CCOC(=O)c1cc(C(=O)c2ccccc2)n2c1ccc1c3ncccc3ccc12 | - | H37Rv | reporter gene / fluorescence | EC50 | >200 µM
Cc1nn(C(=O)c2ccncc2)c(C)c1N=Nc1cccc2ccccc12 | 12.5 µg/mL | H37Rv | BACTEC | inhibition | -21%
CO[C@H]1/C=C/O[C@@]2(C)Oc3c(C)c(O)c4c(O)c(c(/C=N/N5CCN(C)CC5)c(O)c4c3C2=O)NC(=O)/C(C)=C\C=C\[C@H](C)[C@H](O)[C@@H](C)[C@@H](O)[C@@H](C)[C@H](OC(C)=O)[C@@H]1C | - | RM22 | - | MIC | >64 µg/mL
COc1ccc(C(=O)Nn2c(C)ccc2-c2ccccc2)cc1 | 100 µg/mL | H37Rv (ATCC 27294) | resazurin | inhibition | 100%
CC(=O)Nc1ccc(OCC(=O)NN2C(=O)CSC2c2ccc(Cl)cc2)cc1 | 12.5 µg/mL | H37Rv | - | inhibition | 0%
CCc1nc2ncc(F)cn2c1C(=O)NCc1ccc(N2CCN(S(=O)(=O)C(F)(F)F)C(OC)=N2)c(F)c1 | - | - | GFP | EC50 | 0.0045 µM
CC[C@@H](CO)NCCN[C@@H](CC)CO | - | RM22 | - | MIC | 15 µg/mL
CCNc1nnc(-c2ccc(N=Cc3ccc([N+](=O)[O-])o3)cc2)s1 | 6.25 µg/mL | H37Rv | - | inhibition | 0%
CC(=O)OC[C@@H](OC(C)=O)[C@H](/C=C/CC[N+](=O)[O-])OC(C)=O | 12.5 µg/mL | H37Rv | agar | inhibition | 100%
CCc1nc2ccc(C#N)cn2c1C(=O)NCc1ccc(N2CCN(S(=O)(=O)C(F)(F)F)C(OC)=N2)cc1 | - | - | GFP | EC50 | 0.16 µM
CCOC(=O)c1cc(C(=O)c2ccc(Br)cc2)n2c1ccc1c3ncccc3ccc12 | - | H37Rv | reporter gene / fluorescence | MIC | >100 µM
CCNc1nnc(-c2ccc(N=Cc3ccccc3O)cc2)s1 | 6.25 µg/mL | H37Rv | - | inhibition | 0%
COc1cc(C2SCC(=O)N2NC(=O)COc2ccc(NC(C)=O)cc2)cc(OC)c1OC | 12.5 µg/mL | H37Rv | - | inhibition | 0%
COc1cccc2c(Nc3ccc(S(=O)(=O)Nc4ccnn4-c4ccccc4)cc3)ccnc12 | - | Strain 2 (MDR) | - | MIC | 8 µg/mL
COc1ccc2nc(Cl)c(/C=C3/C=C(c4ccc(C)cc4)OC3=O)cc2c1 | - | H37Rv | resazurin | EC50 | >100 µg/mL
CC(=O)/C(CC/C(C)=N\NC(=S)NC1CCCCC1)=C(\C)NNC(=S)NC1CCCCC1 | - | H37Rv | resazurin | MIC bound | >6.25 µg/mL
Cc1ccc2nccc(NC(=S)Nc3ccc(Cl)cc3)c2c1 | - | Strain 1 (MDR) | - | MIC | 0.5 µg/mL
CC(=O)OC[C@@H](OC(C)=O)[C@H](/C=C/C=C/[N+](=O)[O-])OC(C)=O | 12.5 µg/mL | H37Rv | agar | inhibition | inactive
CC1(C)CC(=O)NC1=O | - | H37Rv | BACTEC | MIC bound | >12.5 µg/mL
CC(=O)NC(C)C(CC[C@H](OC(C)=O)[C@@H](COC(C)=O)OC(C)=O)OC(C)=O | 25 µg/mL | H37Rv | agar | inhibition | inactive
COc1ccc(C(=O)[C@@H]2C[C@H](C#N)[C@@H]3C=Cc4c(ccc5cccnc45)N23)cc1 | - | H37Rv | reporter gene / fluorescence | EC50 | >200 µM
CCc1cc(C(N)=S)ccn1 | - | H37Rv | - | MIC | 1.25 µg/mL
COc1cccc2c(NC(=S)Nc3cccc([N+](=O)[O-])c3)ccnc12 | - | Strain 2 (MDR) | - | MIC | 2 µg/mL
O=C(Nn1c(-c2ccccc2)ccc1-c1ccccc1)c1ccncc1 | - | H37Rv | turbidity | EC90 | 3.72 µg/mL
CNc1nnc(-c2ccc(N=Cc3ccccc3O)cc2)s1 | 6.25 µg/mL | H37Rv | - | inhibition | 13%
Cc1noc(NS(=O)(=O)c2ccc(Nc3nc(CC(=O)Nc4ccccc4)cs3)cc2)c1C | 12.5 µg/mL | H37Rv | BACTEC | inhibition | 10%
Cc1ccc(C2=NN=C3C(c4ccccc4)=Nc4ccccc4N3C2)cc1 | - | - | - | MIC | 100 µg/mL
CC(=O)OC[C@@H](OC(C)=O)[C@H](/C=C/C(O)C(C)[N+](=O)[O-])OC(C)=O | 25 µg/mL | H37Rv | agar | inhibition | inactive
O=S1(=O)CS(=O)(=O)OCCCCO1 | 12.5 µg/mL | H37Rv | BACTEC | inhibition | -3%
CC(=O)Nc1ccc(/C=N/NC(N)=S)cc1 | - | RM22 | - | MIC | ≤0.156 µg/mL
CCOC(=O)c1ccc2c(c1)nc(-c1ccccn1)n2CCc1ccncc1 | 6.25 µg/mL | H37Rv | BACTEC | inhibition | 0%
O=C1OC(c2ccc(Cl)cc2)=C/C1=C/c1cc2ccccc2nc1Cl | - | H37Rv | resazurin | EC50 | >100 µg/mL
CCc1nc2nc(N(C)C)c(Cl)cn2c1C(=O)NCc1ccc(N2CCN(S(=O)(=O)C(F)(F)F)C=N2)c(F)c1 | - | - | GFP | EC50 | 0.2 µM
CC1=C(Cl)C[C@@H](/C(C)=C\Cl)O[C@@]1(O)C(Br)Br | 12.5 µg/mL | H37Rv | BACTEC | inhibition | 14%
CC(C)C1C=C2C(C(=O)C1=O)[C@@]1(C)CCCC(C)(C)[C@@H]1C[C@@H]2O | 12.5 µg/mL | H37Rv | - | inhibition | 99%
Cc1ccc(-c2ccccc2)n1NC(=O)c1ccncc1 | - | LORA | turbidity | EC50 | 0.86 µg/mL
COc1cc(Br)c(CC(=O)c2cn(C(=O)Cc3cc(OC)c(OC)cc3Br)c3ccc(Br)cc23)cc1OC | 6.25 µg/mL | H37Rv | resazurin | inhibition | -9%
Cc1cc(=O)oc2cc(OCc3nnc(NC(=O)c4cccc(Cl)c4)o3)ccc12 | - | H37Rv | resazurin | EC50 | 52.5 µg/mL
COc1cccc2c(Nc3ccc(S(=O)(=O)c4ccc(NC(C)=O)cc4)cc3)ccnc12 | - | Strain 2 (MDR) | - | MIC | 0.5 µg/mL
Cc1c2ccncc2c(C)c2c1[nH]c1ccc(O)cc12 | 6.25 µg/mL | H37Rv | resazurin | inhibition | 100%
CC(=O)Nc1ccc(S(=O)(=O)c2ccc(Nc3ccnc4ccc(C)cc34)cc2)cc1 | - | Strain 2 (MDR) | - | MIC | 2 µg/mL
COC(=O)c1c(C(=O)OC)c2ccc3c4ncccc4ccc3n2c1C(=O)c1ccc(Cl)cc1 | - | H37Rv | reporter gene / fluorescence | EC50 | >50 µM
Cc1ccc(Nc2nnc(-c3ccc(N=Cc4cccc([N+](=O)[O-])c4)cc3)s2)cc1 | 6.25 µg/mL | H37Rv | - | inhibition | 36%
O=C(Nn1c(-c2ccccc2)ccc1-c1ccccc1)c1ccccc1 | 100 µg/mL | H37Rv (ATCC 27294) | resazurin | inhibition | 100%
CCOC(=O)/C(=C\c1c(C)[nH]c2ccccc12)P(=O)(OCC)OCC | - | H37Rv | BACTEC | MIC bound | >12.5 µg/mL
CC(=O)NC(C)CCC[C@H](OC(C)=O)[C@@H](COC(C)=O)OC(C)=O | 25 µg/mL | H37Rv | agar | inhibition | 100%
O=C(ON=c1c2ccccc2ccc2ccccc12)c1ccccc1 | 12.5 µg/mL | H37Rv | BACTEC | inhibition | 19%
O=C1OC(c2ccccc2)=C/C1=C/c1cc2cc(Cl)ccc2nc1Cl | - | H37Rv | resazurin | EC50 | >100 µg/mL
CC1COc2c(N3CCN(C)CC3)c(F)cc3c(=O)c(C(=O)O)cn1c23 | - | 38 strains | - | MIC50 | 0.39 µg/mL
CO[C@H]1/C=C/O[C@@]2(C)Oc3c(C)c(O)c4c(O)c(c(/C=N/N5CCN(C)CC5)c(O)c4c3C2=O)NC(=O)/C(C)=C\C=C\[C@H](C)[C@H](O)[C@@H](C)[C@@H](O)[C@@H](C)[C@H](OC(C)=O)[C@@H]1C | - | H37Rv | resazurin | EC50 | 0.4 µg/mL
CC(C)=CCC(OC(=O)C=C(C)C)c1cc(O)c2c(c1O)C(=O)C=CC2=O | - | H37Rv | BACTEC | MIC bound | >12.8 µg/mL
CC1=CC(=O)c2c(O)cccc2C1=O | - | H37Rv | - | EC50 | >12.5 µg/mL
CNc1nnc(-c2ccc(N=Cc3cccc([N+](=O)[O-])c3)cc2)s1 | 6.25 µg/mL | H37Rv | - | inhibition | 0%
Cc1nnc2c(-c3ccccc3)nc3ccccc3n12 | - | - | - | MIC | 100 µg/mL
CC(=O)Nc1ccc(OCC(=O)NN2C(=O)C(C)SC2c2ccc(Cl)cc2Cl)cc1 | - | H37Rv | - | EC50 | >12.5 µg/mL
CCc1ccc(C2=C/C(=C/c3cc4cc(OC)ccc4nc3Cl)C(=O)O2)cc1 | - | H37Rv | resazurin | EC50 | >100 µg/mL
COC(=O)C(CO)NC(=O)C(Cc1cnc[nH]1)NC(=O)CNC(=O)OCc1ccccc1 | 12.8 µg/mL | H37Rv | BACTEC | inhibition | 20%
CC(=O)NCCCC[C@H](OC(C)=O)[C@@H](COC(C)=O)OC(C)=O | 25 µg/mL | H37Rv | agar | inhibition | 100%
CN[C@@H]1[C@H](O[C@H]2[C@H](O[C@H]3[C@H](O)[C@@H](O)[C@H](N=C(N)N)[C@@H](O)[C@@H]3N=C(N)N)O[C@@H](C)[C@]2(O)C=O)O[C@@H](CO)[C@H](O)[C@H]1O | - | 38 strains | - | MIC50 | 0.39 µg/mL
CN[C@@H]1[C@H](O[C@H]2[C@H](O[C@H]3[C@H](O)[C@@H](O)[C@H](N=C(N)N)[C@@H](O)[C@@H]3N=C(N)N)O[C@@H](C)[C@]2(O)C=O)O[C@@H](CO)[C@H](O)[C@H]1O | - | RM22 | - | MIC | 32 µg/mL
COc1ccc(C(=O)Nn2c(-c3ccccc3)ccc2-c2ccccc2)cc1 | 100 µg/mL | H37Rv (ATCC 27294) | resazurin | inhibition | 90%
Cc1nc2ccc(NC(=O)c3ccccc3)cc2o1 | 6.25 µg/mL | H37Rv | BACTEC | inhibition | 0%
COC(=O)c1c(C(=O)OC)c2ccc3c4ncccc4ccc3n2c1C(=O)c1ccc([N+](=O)[O-])cc1 | - | H37Rv | reporter gene / fluorescence | EC50 | >100 µM
CC(=O)O[C@@H]1OC=C2CC[C@H]3[C@]4(C)CC[C@H]5C(C)(C)CCC[C@]5(C)[C@H]4C[C@@H](O)[C@]3(C)[C@H]21 | - | H37Ra | - | MIC | 3 µM
CC(=O)Nc1ccc(OCC(=O)NN2C(=O)CSC2c2ccco2)cc1 | 12.5 µg/mL | H37Rv | - | inhibition | 0%
CC(C)=CCCC(=O)Cc1nc2nnc(N)n2nc1CC(=O)CCC=C(C)C | - | H37Rv | BACTEC | MIC bound | >12.5 µg/mL
CO[C@H]1/C=C/O[C@@]2(C)Oc3c(C)c(O)c4c(O)c(c(/C=N/N5CCN(C)CC5)c(O)c4c3C2=O)NC(=O)/C(C)=C\C=C\[C@H](C)[C@H](O)[C@@H](C)[C@@H](O)[C@@H](C)[C@H](OC(C)=O)[C@@H]1C | - | H37Rv | reporter gene / fluorescence | MIC | 0.0055 µM
CCC1CN(c2c(F)cc3c(=O)c(C(=O)O)cn(C4CC4)c3c2OC)CCN1 | - | Isolate TN3541 | - | MIC | 0.2 µg/mL
CC(=O)OC[C@@H](OC(C)=O)[C@H](/C=C/CC(C)[N+](=O)[O-])OC(C)=O | 6.25 µg/mL | H37Rv | agar | inhibition | 100%
COc1ccc2c(c1)Sc1c(ccc3ccccc13)N2CCCN(C)C | - | H37Rv | - | MIC | 6.25 µg/mL
CC(=O)OC[C@@H](OC(C)=O)[C@H](/C=C/C(O)C[N+](=O)[O-])OC(C)=O | 25 µg/mL | H37Rv | agar | inhibition | inactive
O=C(c1ccccc1)N1N=CCCC1O | - | H37Rv | BACTEC | MIC bound | >12.5 µg/mL
O=C1OC(c2ccc(Cl)cc2)=C/C1=C/c1cc2cc(Cl)ccc2nc1Cl | - | H37Rv | resazurin | EC50 | >100 µg/mL
Cc1coc2c1C(OC(=O)C(C)C)C1(C)C(C)CCC(O)C1C2=O | 12.5 µg/mL | H37Rv | BACTEC | inhibition | 18%
COc1ccc2nc(-c3ccccc3)cc(Nc3cccc(O)c3)c2c1 | - | Strain 2 (MDR) | - | MIC | >1 µg/mL
CC1=C[C@@H]2O[C@H]3C[C@@H](OC(=O)/C=C/C=C/C(OCCC4=CC(=O)OC4)C(C)O)[C@@](C)([C@]2(CO)CC1)[C@@]31CO1 | - | H37Rv | BACTEC | MIC bound | >12.5 µg/mL
CC(=O)Nc1ccc(S(=O)(=O)c2ccc(N)cc2)cc1 | - | Strain 1 (MDR) | - | MIC | 1 µg/mL
COc1ccc2ncc(COC(=O)NCCCl)c(COC(=O)NCCCl)c2c1 | - | H37Rv | BACTEC | MIC bound | >12.5 µg/mL
CCc1nc2ccc(Cl)cn2c1C(=O)NCc1ccc(N2CCN(S(=O)(=O)C(F)(F)F)C=N2)cc1.Cl | - | - | GFP | EC50 | 0.0091 µM